Measurements: PMC5895000
Construct, isoform or probe ends are uncertain for at least one entry.

Test system: TRP120-1TR (Ehrlichia chaffeensis)
Test: NMR (1H-15N HSQC titration)
Conditions: pH 5.5, 10 mM phosphate, 100 mM NaCl, 68 uM protein, 10-fold DNA, Discussion suggests micromolar range; 20 mM Tris pH 7.0 or 10 mM sodium phosphate pH 5.5, 100 mM NaCl, 1 mM DSS, 1 mM sodium azide, 10% D2O, 25 C; recombinant protein; protein details: GST removed by thrombin, 15N-labeled

## GCGATTCTCCTGCCTCAGCCTCCCTAG (double strand) [GC-rich DNA probe]
  binding result: binds
